# Measurements published in patent US11059855B2, “Antimicrobial peptides and methods of making and using same” (priority 2017, dated 2021).
# Columns and labels:
# [1] = previous work; cited from earlier work
# [2] = Isothermal titration calorimetry, POPC; format: binding; conditions: for ΔH, POPC: titrated POPC vesicle
# [3] = Isothermal titration calorimetry, POPG; format: binding; conditions: for ΔH, POPG: titrated POPG vesicle; for Free energy of binding ΔG, POPG: ΔG=RT ln Kd
Substance,"Transmembrane (TM) inserted fraction, pTM [1]","ΔH, POPC [2] [kcal/mol]","Stoichiometry N, POPG [3]","ΔS, POPG [3]","ΔH, POPG [3] [kcal/mol]","Free energy of binding ΔG, POPG [3] [kcal/mol]","Stoichiometry N, POPC [2] [lipids per peptide]","ΔS, POPC [2]","Free energy of binding ΔG, POPC ([2]; ΔG=RT ln Kd) [kcal/mol]",ΔΔH between POPC and POPG [3] [kcal/mol]
"GL5RL5G: polyleucine-based peptide of the acetyl-GLnRLnG-amide family, n=5 (SEQ ID NO: 28) (GLLLLLRLLLLLG; N-terminal acetyl, C-terminal amide)",7±2% and 7%,,,,,,,,,
GLLDDAKLLAKLAGW-AMIDE [Peptide 7D12],,0.1,11 lipids per peptide and 12 lipids per peptide,7.9 cal/mol K,-3.4,~5.7,,,,
H-GLDDLAKLLLKLAGW-NH2 [Peptide 25B2],,-4.7,5 lipids per peptide,2.8-3.6 cal/mol K,-4.9,~5.7,5,2.8-3.6 cal/mol K,~5.7,-0.21
"GL6RL6G: polyleucine-based peptide of the acetyl-GLnRLnG-amide family, n=6 (SEQ ID NO: 29) (GLLLLLLRLLLLLLG; N-terminal acetyl, C-terminal amide)",35±8% and 35%,,,,,,,,,

# Values joined by “and” are separate entries in the source; they are usually repeats but may differ in a detail not shown here. Identical values can stand only once.
